# Fitness effects across NS2B and the NS3 protease domain of Zika virus

The measurements come from Ni et al. 2025 (doi:10.1038/s41467-025-63602-z).

Chain scanned (Zika virus MR766; NS2B from position 2 to 131, then the start of NS3):
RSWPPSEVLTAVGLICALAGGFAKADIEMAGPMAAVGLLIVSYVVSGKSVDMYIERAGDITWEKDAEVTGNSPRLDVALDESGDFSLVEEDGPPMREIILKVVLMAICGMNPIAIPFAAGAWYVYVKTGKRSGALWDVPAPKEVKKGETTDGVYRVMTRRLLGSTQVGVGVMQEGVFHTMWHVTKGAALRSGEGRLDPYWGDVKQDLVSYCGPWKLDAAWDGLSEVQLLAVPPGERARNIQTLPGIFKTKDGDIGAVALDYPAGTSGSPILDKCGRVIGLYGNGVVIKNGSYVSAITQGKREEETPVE

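Mutant virus pools were grown in human Huh-7.5 cells. Deep sequencing gave the change in frequency of each mutant relative to wild type, averaged over three replicate libraries (two for positions 207-308). The study looked for pockets that tolerate few changes, as a guide for inhibitor design.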

Values are log2 effects on growth: 0 is wild type, lower means poorer growth. A change reads original residue, position, new residue. This list holds changes to glycine only. Position 1 still belongs to NS2A. In the paper, -1 or higher counts as tolerated.

For L196G the result was -6.12.
For D197G the result was -3.23.
For P198G the result was -7.37.
For Y199G the result was -5.14.
For W200G the result was -7.50.
For D202G the result was -6.69.
For V203G the result was -8.29.
For K204G the result was -8.02.
For Q205G the result was -7.25.
For D206G the result was -7.36.
For L207G the result was -8.02.
For V208G the result was -8.89.
For S209G the result was -6.60.
For Y210G the result was -7.47.
For C211G the result was 0.08.
For P213G the result was 1.55.
For W214G the result was -7.07.
For K215G the result was -4.40.
For L216G the result was -7.71.
For D217G the result was -5.69.
For A218G the result was -3.61.
For A219G the result was -3.73.
For W220G the result was -7.26.
For D221G the result was -6.31.
For L223G the result was -1.48.
For S224G the result was -3.41.
For E225G the result was -6.71.
For V226G the result was -6.18.
For Q227G the result was -6.15.
For L228G the result was -4.93.
For L229G the result was -3.58.
For A230G the result was -6.21.
For V231G the result was -5.93.
For P232G the result was -3.03.
For P233G the result was -6.24.
For E235G the result was -0.66.
For R236G the result was 0.93.
For A237G the result was -1.42.
For R238G the result was -1.05.
For N239G the result was -3.94.
For I240G the result was -6.70.
For Q241G the result was -5.60.
For T242G the result was -6.53.
For L243G the result was -5.58.
For P244G the result was -5.41.
For I246G the result was -5.64.
For F247G the result was -6.99.
For K248G the result was -7.02.
For T249G the result was -6.13.
For K250G the result was -4.06.
For D251G the result was -3.99.
For D253G the result was -6.85.
For I254G the result was -6.81.
For A256G the result was -6.56.
For V257G the result was -5.98.

Extract of 4 entries:

mutation,effect (log2)
D221G,-6.31
A230G,-6.21
F247G,-6.99
P213G,1.55

Values above 0 are not proof of better growth: six high scorers were tested one by one, five grew less well than wild type and one about as well. The region was split into three libraries (1-103, 104-206, 207-308).